Anti-infective test results gathered from many reports (values: NIAID ChemDB through PubChem).

Shared fields: tests in culture; organism: Aspergillus flavus; measure: zone

Zones are inhibition diameters on agar. Blank or dashed fields: not listed here. Neighbouring rows are from separate reports.

| SMILES | strain | method | dose | value |
|---|---|---|---|---|
| COc1c(N2CC3CCCNC3C2)c(F)cc2c(=O)c(C(=O)[O-])cn(C3CC3)c12.COc1c(N2CC3CCCNC3C2)c(F)cc2c(=O)c(C(=O)[O-])cn(C3CC3)c12.[Cl][Cu+].[Cl][Cu+].c1c[nH]cn1.c1c[nH]cn1 | - | agar diffusion | 100 µM | 0 mm |
| Cn1c(=O)c(-c2[nH][nH]c(=O)c2C=Nc2ccc(N)cc2)c(O)c2ccccc21 | ATCC 28542 | agar diffusion | 1 mg/mL | 15 mm |
| OC(Cn1cncn1)(Cn1cncn1)c1ccc(F)cc1F | - | - | 50 µg/mL | 100 mm |
| O=C(CNC(=O)c1ccncc1)NN1C(=O)CSC1c1ccccc1Br | - | agar diffusion | 100 µg/mL | 17 mm |
| [Cl][Zn+].[O-]c1cc2ccccc2cc1/C=N/NC(=S)N/N=C/c1cc2ccccc2cc1O | - | agar diffusion / agar | 2 mg/mL | 0 mm |
| Cc1nc2ccccc2n(CC(=O)NN2C(=O)CSC2c2ccc(O)cc2)c1=O | - | - | 100 µg/mL | 21 mm |
| COc1ccc(/C=c2\c(=O)[nH][nH]\c2=C2/C(=O)c3ccccc3N(C)C2=O)cc1 | ATCC 28542 | agar diffusion | 1 mg/mL | 10 mm |
| COc1ccc(C2SCC(=O)N2NC(=O)Cn2c(=O)c(C)nc3ccccc32)cc1O | - | - | 50 µg/mL | 10 mm |
| CC(=O)Nc1ccc(Cl)cc1Sc1ncccc1[N+](=O)[O-] | MTCC 277 | - | 100 µg/mL | 12 mm |
| Cc1nc2ccccc2n(CC(=O)NN2C(=O)CSC2c2ccccc2Cl)c1=O | - | - | 50 µg/mL | 8 mm |
| O=C(NN1C(=O)CSC1C1C(c2ccccc2)=Nc2ccccc21)N1c2ccccc2C=Cc2ccccc21 | MTCC-1973 | agar diffusion | 1000 µg/mL | 3 mm |
| O=c1[nH]c(-c2cc3ccccc3oc2=O)nc2c1C(c1cccc([N+](=O)[O-])c1)c1ccc3ccccc3c1O2 | - | agar diffusion / agar | 150 µg/mL | 12 mm |
| COC1=CC(=O)C[C@@H](C)[C@]12Oc1c(Cl)c(OC)cc(OC)c1C2=O | - | agar diffusion / agar | 5 mg/mL | 19 mm |
| CN1C(=O)/C(=c2/[nH][nH]c(=O)/c2=C\c2ccc3c(c2)OCO3)C(=O)c2ccccc21 | ATCC 28542 | agar diffusion | 1 mg/mL | 12 mm |
| COc1ccc(-c2nn(-c3ccccc3)cc2C2CC(c3ccc(-c4ccccc4)cc3)=NN2c2ccccc2)cc1 | - | - | 500 µg/mL | 0 mm |
| O=c1[nH]c(-c2cc3ccccc3oc2=O)nc2c1C(c1ccccc1)c1ccc3ccccc3c1O2 | - | agar diffusion / agar | 150 µg/mL | 14 mm |
| COc1ccc(/C=c2\c(=O)[nH][nH]\c2=C2/C(=O)c3ccccc3N(C)C2=O)cc1OC | ATCC 28542 | agar diffusion | 1 mg/mL | 11 mm |
| O=C(CNC(=O)c1ccncc1)NN1C(=O)CSC1c1ccccc1Cl | - | agar diffusion | 100 µg/mL | 22 mm |
| CN1C(=O)/C(=c2/[nH][nH]c(=O)/c2=C\c2ccc(N)cc2)C(=O)c2ccccc21 | ATCC 28542 | agar diffusion | 1 mg/mL | 0 mm |
| COc1ccc(C2SCC(=O)N2NC(=O)Cn2c(=O)c(C)nc3ccccc32)cc1 | - | - | 100 µg/mL | 15 mm |
| Brc1ccc(-c2nn(-c3ccccc3)cc2C2CC(c3ccc(-c4ccccc4)cc3)=NN2c2ccccc2)cc1 | - | - | 1000 µg/mL | 6 mm |
| Cn1c(=O)c(-c2[nH][nH]c(=O)c2N=Nc2ccccc2)c(O)c2ccccc21 | ATCC 28542 | agar diffusion | 1 mg/mL | 11 mm |
| Cc1ccc(/C=C2\SC(c3ccc(C)cc3)N(NC(=O)CNC(=O)c3ccncc3)C2=O)cc1 | - | agar diffusion | 50 µg/mL | 7.5 mm |
| COc1ccc(N2C(=O)N(c3ccc(Cl)c(C(F)(F)F)c3)C(=N)C2=S)cc1 | - | agar diffusion / agar | 5 mg/mL | 14 mm |
| O=C(NN=CC1C(c2ccccc2)=Nc2ccccc21)N1c2ccccc2C=Cc2ccccc21 | MTCC-1973 | agar diffusion | 750 µg/mL | 10 mm |
| CN(C)c1ccc(C2SCC(=O)N2NC(=O)CNC(=O)c2ccncc2)cc1 | - | agar diffusion | 50 µg/mL | 11 mm |
| Clc1ccc(C2=NN(c3ccccc3)C(c3cn(-c4ccccc4)nc3-c3ccc(Br)cc3)C2)c(Cl)c1 | - | - | 1000 µg/mL | 4 mm |
| COc1cc(N2C(=N)C(=S)N(c3ccc(F)cc3)C2=O)ccc1-c1ccc(N2C(=N)C(=S)N(c3ccc(F)cc3)C2=O)cc1OC | - | agar diffusion / agar | 5 mg/mL | 16 mm |
| COc1c(N2CC3CCCNC3C2)c(F)cc2c(=O)c(C(=O)[O-])cn(C3CC3)c12.[Cl][Co+].c1c[nH]cn1 | - | agar diffusion | 100 µM | 0 mm |
| Cc1nc2ccccc2n(CC(=O)NN2C(=O)CSC2c2ccc([N+](=O)[O-])cc2)c1=O | - | - | 100 µg/mL | 20 mm |
| Brc1ccc2c(c1)Sc1cccnc1N2C/C=C/CN1c2ccc(Br)cc2Sc2cccnc21 | MTCC 277 | - | 100 µg/mL | 11 mm |
| Cc1ccc(C2c3ccc4ccccc4c3Oc3nc(-c4cc5ccccc5oc4=O)[nH]c(=O)c32)cc1 | - | agar diffusion / agar | 100 µg/mL | 8 mm |
| OC(Cn1cncn1)(Cn1cncn1)c1ccc(F)cc1F | MTCC 1883 | - | 500 µg/mL | 26 mm |
| Cc1ccc2c(c1)C(C1SCC(=O)N1NC(=O)N1c3ccccc3C=Cc3ccccc31)C(c1ccccc1)=N2 | MTCC-1973 | agar diffusion | 750 µg/mL | 2 mm |
| O=C(CNC(=O)c1ccncc1)NN1C(=O)/C(=C/c2cccc([N+](=O)[O-])c2)SC1c1cccc([N+](=O)[O-])c1 | - | agar diffusion | 50 µg/mL | 22 mm |
| N=C1C(=S)N(c2ccc(F)cc2)C(=O)N1CCCCCCN1C(=N)C(=S)N(c2ccc(F)cc2)C1=O | - | agar diffusion / agar | 5 mg/mL | 14 mm |
| CC(=O)Nc1ccccc1Sc1ncccc1[N+](=O)[O-] | MTCC 277 | - | 100 µg/mL | 12 mm |
| C=C1SCN(NC(=O)CNC(=O)c2ccncc2)C1=O | - | agar diffusion | 100 µg/mL | 14 mm |
| Cn1c(=O)c(-c2[nH][nH]c(=O)c2N=Nc2ccc(Cl)cc2)c(O)c2ccccc21 | ATCC 28542 | agar diffusion | 1 mg/mL | 14 mm |
| c1ccc2c(c1)Sc1cccnc1N2CCCCCCN1c2ccccc2Sc2cccnc21 | MTCC 277 | - | 100 µg/mL | 12 mm |
| C[C@H]1[C@H](O)[C@@H](C)/C=C/C=C/C=C/C=C/C=C/C=C/C=C/[C@H](O[C@@H]2O[C@H](C)[C@@H](O)[C@H](N)[C@@H]2O)C[C@@H]2O[C@](O)(C[C@@H](O)C[C@@H](O)CC[C@H](O)[C@@H](O)C[C@@H](O)CC(=O)O[C@H]1C)C[C@H](O)[C@H]2C(=O)O | - | agar diffusion / agar | 100 µg/mL | 25 mm |
| Clc1ccc(COC(Cn2ccnc2)c2ccc(Cl)cc2Cl)c(Cl)c1 | MTCC 277 | - | 100 µg/mL | 17 mm |
| N=C1C(=S)N(c2ccc(F)cc2)C(=O)N1c1ccc(Cl)cc1 | - | agar diffusion / agar | 5 mg/mL | 15 mm |
| O=C(CNC(=O)c1ccncc1)NN1CSCC1=O | - | agar diffusion | 100 µg/mL | 15.8 mm |
| Cn1c(=O)c(-c2[nH][nH]c(=O)c2/C=N/c2ccccn2)c(O)c2ccccc21 | ATCC 28542 | agar diffusion | 1 mg/mL | 21 mm |
| CSc1ccc(C2=NN(c3ccccc3)C(c3cn(-c4ccccc4)nc3-c3ccc(Cl)cc3)C2)cc1 | - | - | 500 µg/mL | 2 mm |